Results of unrelated studies side by side (data: NIAID ChemDB).

Shared fields: whole-cell or culture tests; species: HIV-1; cells: CEM; measure: fold resistance

Fold resistance: result on the changed form divided by that on wild type.

SMILES,strain,changes,method,value
CC(C)OC(=S)Nc1ccc(Cl)c(C(=O)O)c1,-,RT-L100I,syncytia,>1
CCOC(=O)c1cc(NC(=S)c2ccoc2C)ccc1C,IIIB,RT-Y181C,syncytia,6.67
CC1=C(C(=O)Nc2ccc(Cl)c(C(=O)OC(C)C)c2)SCCO1,IIIB,RT-V179D,syncytia,22.4
CC(C)OC(=S)Nc1ccc(Cl)c(COC(C)(C)C)c1,-,RT-L100I,syncytia,>2.22
COc1ccc(NC(=S)C2=C(C)OCCS2)cc1OCC=C(Cl)Cl,TIBO R82913-resistant (RT K103N),RT-K103N,syncytia,9.26
CCCCCCCCCC[N+](C)(C)CCCNCc1c(O)cc2c(c1O)-c1cc(ccc1O)[C@H]1NC(=O)[C@@H]3NC(=O)C4NC(=O)[C@@H](Cc5ccc(c(Cl)c5)Oc5cc3cc(c5O)Oc3ccc(cc3Cl)[C@@H](O)[C@H](NC1=O)C(=O)N[C@@H]2C(=O)O)NC(=O)[C@H](N)c1ccc(O)c(c1)Oc1cc(O)cc4c1,-,RT-Y181C,syncytia,3.04
C=CCOc1cc(NC(=S)OC(C)C)ccc1Cl,-,RT-V106A,syncytia,9.52
Cc1cc(C)c(CS(=O)c2cccc[n+]2[O-])c(C)c1,IIIB,RT-L100I,syncytia,1.875
COCC1=C(C(=O)Nc2ccc(Cl)c(C(=O)OC(C)C)c2)SCCO1,PYR-resistant (RT Y181C),RT-Y181C,syncytia,>14.3
CC(C)OC(=S)Nc1ccc(Cl)c(C(=O)OC2CCCC2)c1,-,RT-Y181C,syncytia,27.3
Cc1occc1C(=S)Nc1ccc(Cl)c(OCC=C(Cl)Cl)c1,TIBO R82913-resistant (RT K103N),RT-K103N,syncytia,32.9
C/C=C/COc1cc(NC(=S)OC(C)C)ccc1Cl,IIIB,RT-K101E,-,3.3
CCOCn1c(Sc2ccccc2)c(CC)c(=O)[nH]c1=O,IIIB,RT-Y181C,syncytia,108
Cc1ccc(C)c(CS(=O)c2ccc(Cl)c[n+]2[O-])c1,IIIB,RT-K103N,syncytia,4.5
COc1ccc(NC(=O)C2=C(C)OCCS2)cc1OCC=C(Cl)Cl,HEPT-resistant (RT Y188H),RT-Y188H,syncytia,2.5
C=C(C)COc1cc(NC(=S)OC(C)C)ccc1Cl,-,RT-V106A,syncytia,44.5
CC(C)=CCOc1cc(NC(=S)c2ccoc2C)ccc1Cl,IIIB,RT-L100I,syncytia,2.7
CC(C)O/N=C/c1cc(NC(=S)OC(C)C)ccc1Cl,-,RT-Y181C,syncytia,35
CC1=C(C(=S)Nc2ccc(Cl)c(/C=N/OC(C)(C)C)c2)CCO1,IIIB,RT-L100I,syncytia,10
Cc1occc1C(=S)Nc1ccc(Cl)c(SCC=C(Cl)Cl)c1,Nevirapine-resistant isolate (RT V106A),RT-V106A,syncytia,5
Cc1ccc(C)c(CSc2c(Cl)ccc[n+]2[O-])c1,-,RT-Y181C,cytopathic effect,≥400
CCC(C)OC(=O)c1cc(NC(=S)OC(C)C)ccc1Cl,-,RT-Y181C,syncytia,42.2
CCC1=C(C(=O)Nc2ccc(Cl)c(C(=O)OC(C)C)c2)SCCO1,TIBO-resistant (RT L100I),RT-L100I,syncytia,15
O=C(Nc1ccc(Cl)c(C(=O)OC2CCCCC2)c1)c1ccccc1F,IIIB,RT-V106A,syncytia,3.33
Cc1cc(C)c(CS(=O)c2cccc[n+]2[O-])c(C)c1,-,RT-Y181C,cytopathic effect,4.16
CCCCCCCCCC[N+](C)(C)CCCNCc1c(O)cc2c(c1O)-c1cc(ccc1O)[C@H]1NC(=O)[C@@H]3NC(=O)C4NC(=O)[C@@H](Cc5ccc(c(Cl)c5)Oc5cc3cc(c5O)Oc3ccc(cc3Cl)[C@@H](O)[C@H](NC1=O)C(=O)N[C@@H]2C(=O)O)NC(=O)[C@H](N)c1ccc(O)c(c1)Oc1cc(O)cc4c1,-,RT-K103N,syncytia,2.14
CCCCCOC(=S)Nc1ccc(Cl)c(C(=O)OC(C)C)c1,-,RT-L100I,syncytia,10
CC(C)c1c(Sc2ccccc2)n(COCCO)c(=S)[nH]c1=O,IIIB,RT-E138K,syncytia,0.75
Cc1ccc(C)c(C(Cl)S(=O)(=O)c2cc(C)cc[n+]2[O-])c1,-,RT-K103N,cytopathic effect,>8.3
CC(C)OC(=S)Nc1ccc(Cl)c(C(=O)OC(C)(C)C)c1,-,RT-E138K,syncytia,35.1
CCOCn1c(Sc2ccccc2)c(C(C)C)c(=O)[nH]c1=S,IIIB (TIBO 82150) (RT-L100I),RT-L100I,syncytia,3.33
Cc1occc1C(=O)Nc1ccc(Cl)c(/C=N/N(C)C)c1,R82913-resistant (RT K103N),RT-K103N,syncytia,<8.89
C=C(Cl)COc1cc(NC(=S)c2ccoc2C)ccc1Cl,TSAO-m3T-resistant (RT E138K),RT-E138K,syncytia,5.53
CC(C)=CCOc1cc(NC(=S)c2ccoc2C)ccc1Cl,IIIB,RT-V106A,syncytia,2
Cc1ccc(C)c(CS(=O)(=O)c2cccc[n+]2[O-])c1,IIIB,RT-L100I,syncytia,1.89
CC(C)OC(=O)c1cc(NC(=O)OCC2CC2)ccc1Cl,-,RT-Y181C,syncytia,18.9
CC1=C(C(=O)Nc2cc(C(=O)OC(C)C)c(C)cc2F)SCCO1,TIBO-resistant (RT L100I),RT-L100I,syncytia,>4.35
Cc1ccc(C)c(C(C)S(=O)(=O)c2c(C)ccc[n+]2[O-])c1,-,RT-K103N,cytopathic effect,120
CC1=C(C(=O)Nc2ccc(Cl)c(OCC=C(Cl)Cl)c2)SCCO1,Pyridone-resistant (RT Y181C),RT-Y181C,syncytia,1.67
CSc1ccc(NC(=S)OC(C)C)cc1C(=O)OC(C)C,-,RT-E138K,syncytia,18.3
CCCOC(=O)c1ccc(C)c(NC(=O)C2=C(C)OCCS2)c1,TIBO-resistant (RT L100I),RT-L100I,syncytia,>10
CCCSC(=Nc1ccc(Cl)c(C(=O)OC(C)C)c1)OC(C)C,-,RT-E138K,syncytia,13
C=C(Cl)COc1cc(NC(=S)c2ccoc2C)ccc1C,TSAO-m3T-resistant (RT E138K),RT-E138K,syncytia,6.67
C=CCSc1cc(NC(=S)OC(C)C)ccc1Cl,-,RT-V106A,syncytia,12.5
C/C(Cl)=C/COc1cc(NC(=O)c2ccoc2C)ccc1Cl,HEPT-resistant (RT Y188H),RT-Y188H,syncytia,222
Cc1ccsc1C(=O)Nc1ccc(Cl)c(C(=O)OC2CCCCC2)c1,-,RT-E138K,syncytia,32.4
CCCOC(=O)c1cc(NC(=S)OC(C)C)ccc1Cl,-,RT-V106A,syncytia,80.2
CC(C)OC(=O)c1cc(NC(=S)OC(C)C)ccc1Cl,IIIB,RT-Y188H,syncytia,72
CCOC(=O)c1cc(NC(=S)OC(C)C)ccc1Cl,-,RT-E138K,syncytia,25.1
COc1ccc(NC(=S)c2ccoc2C)cc1OCC=C(Cl)Cl,HEPT-resistant (RT Y188H),RT-Y188H,syncytia,833
CCc1c(Sc2cc(C)cc(C)c2)n(COCc2ccccc2)c(=O)[nH]c1=O,IIIB (TIBO 82150) (RT-L100I),RT-L100I,syncytia,2
COc1ccc(NC(=S)OC(C)C)cc1CC(=O)OC(C)C,-,RT-V106A,syncytia,29.56

3 of the rows above, restated:

SMILES | strain | changes | method | value
C=CCSc1cc(NC(=S)OC(C)C)ccc1Cl | - | RT-V106A | syncytia | 12.5
CCC(C)OC(=O)c1cc(NC(=S)OC(C)C)ccc1Cl | - | RT-Y181C | syncytia | 42.2
Cc1ccc(C)c(C(Cl)S(=O)(=O)c2cc(C)cc[n+]2[O-])c1 | - | RT-K103N | cytopathic effect | >8.3

Blank or dashed fields: not listed here. Lines come from different laboratories, so protocols vary.